Anti-infective test results gathered from many reports (values: NIAID ChemDB through PubChem).

Common to all: growth or infection tests; organism: Mycobacterium avium complex; read-out: MIC

Neighbouring rows are from separate reports.

SMILES | strain or isolate | result
CC[C@H]1OC(=O)[C@H](C)[C@@H](O[C@H]2C[C@@](C)(OC)[C@@H](O)[C@H](C)O2)[C@H](C)[C@@H](O[C@@H]2O[C@H](C)C[C@H](N(C)C)[C@H]2O)[C@](C)(OC)C[C@@H](C)C(=O)[C@H](C)[C@@H](O)[C@]1(C)O | Isolate 90-0731 | 2 µg/mL
CCCCCCCCC(=O)O[C@H]1[C@H](C)OC(O[C@H]2[C@H](C)[C@@H](O[C@@H]3O[C@H](C)C[C@H](N(C)C)[C@H]3O)C(C)(O)C[C@@H](C)/C(=N\OCCCOc3ccccc3)[C@H](C)[C@@H](O)[C@](C)(O)[C@@H](CC)OC(=O)[C@@H]2C)C[C@@]1(C)OC | 20096 (clarithromycin-resistant) | 3.13 µg/mL
CC[C@H]1OC(=O)[C@H](C)[C@@H](OC2C[C@@](C)(OC)[C@@H](O)[C@H](C)O2)[C@H](C)[C@@H](O[C@@H]2O[C@H](C)C[C@H](N(C)C)[C@H]2O)C(C)(O)C[C@@H](C)/C(=N\OCCCC2CCCCC2)[C@H](C)[C@@H](O)[C@]1(C)O | 20096 | 6.25 µg/mL
CO[C@H]1/C=C/O[C@@]2(C)Oc3c(C)c(O)c4c(O)c(c5c(c4c3C2=O)NC2(CCN(CC(C)C)CC2)N=5)=NC(=O)/C(C)=C\C=C\[C@H](C)[C@H](O)[C@@H](C)[C@@H](O)[C@@H](C)[C@H](OC(C)=O)[C@@H]1C | N-319 (HIV-) | 0.8 µg/mL
CC[C@H]1OC(=O)[C@H](C)[C@@H](OC2C[C@@](C)(OC)[C@@H](O)[C@H](C)O2)[C@H](C)[C@@H](O[C@@H]2O[C@H](C)C[C@H](N(C)C)[C@H]2O)C(C)(O)C[C@@H](C)/C(=N\OCCc2cccs2)[C@H](C)[C@@H](O)[C@]1(C)O | 20096 (clarithromycin-resistant) | 25 µg/mL
O=C1c2cc(F)ccc2-n2c1nc1ccncc1c2=O | 19075 | 5 µg/mL
CO[C@H]1/C=C/O[C@@]2(C)Oc3c(C)c(O)c4c(=O)c(c5oc6cc(N7CCN(CC(C)C)CC7)cc(=O)c6nc5c4c3=C2O)NC(=O)/C(C)=C\C=C\[C@H](C)[C@H](O)[C@@H](C)[C@@H](O)[C@@H](C)[C@H](OC(C)=O)[C@@H]1C | N-259 (HIV-) | 0.05 µg/mL
CCCCCC/C=C/c1ccc2nc3n(c(=O)c2c1)-c1ccc(Cl)cc1C3=O | 19075 | 1 µg/mL
CC[C@H]1OC(=O)[C@H](C)[C@@H](O[C@H]2C[C@@](C)(OC)[C@@H](OC(C)=O)[C@H](C)O2)[C@H](C)[C@@H](O[C@@H]2O[C@H](C)C[C@H](N(C)C)[C@H]2O)C(C)(O)C[C@@H](C)/C(=N\OC)[C@H](C)[C@@H](O)[C@]1(C)O | 20092 (clarithromycin-resistant) | >50 µg/mL
C[C@@H]1CN(c2c(F)c(N)c3c(=O)c(C(=O)O)cn(C4CC4)c3c2F)C[C@H](C)N1 | N-259 (HIV-) | 0.5 µg/mL
Cc1ccc2nc3n(c(=O)c2c1)-c1ccc(F)cc1C3=O | 19075 | 1 µg/mL
CCCCCCCCCCCCCCO/N=C1\[C@H](C)CC(C)(O)[C@H](O[C@@H]2O[C@H](C)C[C@H](N(C)C)[C@H]2O)[C@@H](C)[C@H](OC2C[C@@](C)(OC)[C@@H](O)[C@H](C)O2)[C@@H](C)C(=O)O[C@H](CC)[C@@](C)(O)[C@H](O)[C@H]1C | 20096 | >50 µg/mL
O=C1c2cc(F)ccc2-n2c1nc1ncccc1c2=O | 101 | 5 µg/mL
CCCCCCCCCCCCO/N=C1\[C@H](C)CC(C)(O)[C@H](O[C@@H]2O[C@H](C)C[C@H](N(C)C)[C@H]2O)[C@@H](C)[C@H](OC2C[C@@](C)(OC)[C@@H](O)[C@H](C)O2)[C@@H](C)C(=O)O[C@H](CC)[C@@](C)(O)[C@H](O)[C@H]1C | 20092 | 25 µg/mL
COc1cccc2c(=O)n3c(nc12)C(=O)c1cc(S(=O)(=O)N2CCN(C)CC2)ccc1-3 | 19075 | >25 µg/mL
CC[C@H]1OC(=O)[C@H](C)[C@@H](OC2C[C@@](C)(OC)[C@@H](O)[C@H](C)O2)[C@H](C)[C@@H](O[C@@H]2O[C@H](C)C[C@H](N(C)C)[C@H]2O)C(C)(O)C[C@@H](C)/C(=N\OCC2CCCCC2)[C@H](C)[C@@H](O)[C@]1(C)O | 20096 | >50 µg/mL
CC[C@H]1OC(=O)[C@H](C)[C@@H](OC(=O)Cc2ccccc2)[C@H](C)[C@@H](O[C@@H]2O[C@H](C)C[C@H](N(C)C)[C@H]2O)C(C)(O)C[C@@H](C)/C(=N\OCCCOc2ccccc2)[C@H](C)[C@@H](O)[C@]1(C)O | 20096 (clarithromycin-resistant) | 6.25 µg/mL
CCCCCCCCO/N=C1\[C@H](C)CC(C)(O)[C@H](O[C@@H]2O[C@H](C)C[C@H](N(C)C)[C@H]2O)[C@@H](C)[C@H](OC2C[C@@](C)(OC)[C@@H](O)[C@H](C)O2)[C@@H](C)C(=O)O[C@H](CC)[C@@](C)(O)[C@H](O)[C@H]1C | 20092 | 25 µg/mL
CC[C@H]1OC(=O)[C@H](C)[C@@H](O[C@H]2C[C@@](C)(OC)[C@@H](O)[C@H](C)O2)[C@H](C)[C@@H](O[C@@H]2O[C@H](C)C[C@H](N(C)C)[C@H]2O)[C@](C)(OC)C[C@@H](C)C(=O)[C@H](C)[C@@H](O)[C@]1(C)O | N-966 (HIV+) | 2 µg/mL
O=C1c2cc(F)ccc2-n2c1nc1ccc(F)cc1c2=O | 101 | ≤0.2 µg/mL
CCCCCCO/N=C1\[C@H](C)CC(C)(O)[C@H](O[C@@H]2O[C@H](C)C[C@H](N(C)C)[C@H]2O)[C@@H](C)[C@H](OC2C[C@@](C)(OC)[C@@H](O)[C@H](C)O2)[C@@H](C)C(=O)O[C@H](CC)[C@@](C)(O)[C@H](O)[C@H]1C | 20096 | 6.25 µg/mL
CO[C@H]1/C=C/O[C@@]2(C)Oc3c(C)c(O)c4c(O)c(c5c(c4c3C2=O)NC2(CCN(CC(C)C)CC2)N=5)=NC(=O)/C(C)=C\C=C\[C@H](C)[C@H](O)[C@@H](C)[C@@H](O)[C@@H](C)[C@H](OC(C)=O)[C@@H]1C | 168-4 | 0.5 µg/mL

2 of the rows above, restated:

SMILES | strain or isolate | result
COc1cccc2c(=O)n3c(nc12)C(=O)c1cc(S(=O)(=O)N2CCN(C)CC2)ccc1-3 | 19075 | >25 µg/mL
CC[C@H]1OC(=O)[C@H](C)[C@@H](O[C@H]2C[C@@](C)(OC)[C@@H](O)[C@H](C)O2)[C@H](C)[C@@H](O[C@@H]2O[C@H](C)C[C@H](N(C)C)[C@H]2O)[C@](C)(OC)C[C@@H](C)C(=O)[C@H](C)[C@@H](O)[C@]1(C)O | N-966 (HIV+) | 2 µg/mL